Measured values from several laboratories, pooled; numbers as filed in NIAID ChemDB.

Common to all: host cell toxicity; cell line: PBMC; measure: CC50

CCn: concentration that lowers growth or viability of the cells by n%. Neighbouring rows are from separate reports.

SMILES,result
Nc1nc(=O)n([C@H]2O[C@@H](CO)C=C2F)cc1F,>100 µM
c1ccc(-c2nnc3c4ccccc4c(N4CCc5ccccc5C4)nn23)cc1,>100 µM
O=C(NCCc1ccc2c(n1)NCCC2)Nc1ccc(C(F)(F)F)cc1Cl,25 µM
Nc1ccn([C@@H]2C=C(F)[C@H](CO)O2)c(=O)n1,>100 µM
Cc1ccc(-c2ccc3c(c2)C=C(C(=O)Nc2ccc(C[N+](C)(C)C4CCOCC4)cc2)CCC3)cc1,>100 µM
NCC(=O)N1CCC[C@H]1C(=O)NCC(N)=O,>500 µM
CC(C)C(Cc1ccccc1)NC(=O)C[C@@H]1O[C@@H]1[C@H](Cc1ccccc1)NC(=O)[C@@H](NC(=O)OCc1ccco1)C(C)(C)S(C)(=O)=O,>10 µM
Nc1ncnc2c1ccn2[C@H]1C=C[C@@H](CO)C1,>100 µM
Nc1ccn([C@@H]2C=C[C@H](CO)O2)c(=O)n1,65 µM
CN1CCN(CCSc2nccc(-c3cccs3)n2)CC1,100 µM
CN1CCN(CCSc2nccc(-c3ccc(-c4ccnc(SCCN5CCN(C)CC5)n4)s3)n2)CC1,100 µM
[N-]=[N+]=N[C@H]1C[C@H](n2ccc(=O)[nH]c2=O)O[C@@H]1COP(=O)(O)OP(=O)(O)O[C@H]1O[C@H](CO)[C@H](O)[C@H](O)[C@H]1O,100 µM
FC(F)(F)c1ccc(NC(=S)NCCC2=CCCCC2)nc1,>100 µM
Cc1nnc2c3ccccc3c(N3CCc4ncccc4C3)nn12,3.37 µM
Nc1ncnc2c1ncn2C1OC(CO)C=C1F,>100 µM
C#Cc1cnc(C(C)=O)nc1C(C)=O,>100 µM
OCCN(CCO)CCOc1nc(-c2cccs2)cc(-c2cc3ccccc3s2)n1,100 µM
O=[N+]([O-])c1ncnc2c1ncn2[C@@H]1O[C@H](CO)C[C@@H]1F,>80 µM
Nc1nc(Cl)c2ncn([C@@H]3O[C@@H](CO)C=C3F)c2n1,26.6 µM
CN1CCN(CCSc2nnc(-c3cc4ccccc4s3)c3ccccc23)CC1,100 µM
CN1CCN(CCSc2nc(-c3cc4ccccc4s3)c3ccccc3n2)CC1,10 µM
COc1cc2c(cc1OC)CN(c1nn3c(C(F)F)nnc3c3ccccc13)CC2,3.61 µM
COc1cc(/C=C/C(=O)CC(=O)/C=C/c2ccc(O)c(OC)c2)ccc1O,10 µM
CN(C)Cc1ccc(-c2cccc(-c3ccc(CN(C)C)cc3)n2)cc1,100 µM
Cc1nnc2ccc(N3CCc4ccccc4C3)nn12,50.8 µM
CN(C)CCSc1cccc(-c2cc(-c3cccs3)nc(SCCN(C)C)n2)c1,10 µM
CC(C)Oc1ccccc1NC(=O)Nc1ccc2cnccc2n1,>100 µg/mL
c1csc(-c2nnc3c4ccccc4c(N4CCc5ccccc5C4)nn23)c1,>100 µM
CN(C)c1ncnc2c1ncn2[C@@H]1O[C@H](CO)C[C@@H]1F,>80 µM
FC(F)c1nnc2c3ccccc3c(N3CCc4ccccc4C3)nn12,20.6 µM
S=C(NCCc1ccc2c(n1)NCCC2)Nc1cccc2ccccc12,0.9 µM
CC(C)C(Cc1ccccc1)NC(=O)C[C@@H]1O[C@@H]1[C@H](Cc1ccccc1)NC(=O)[C@@H](NC(=O)N(C)C1CC1)C(C)(C)S(C)(=O)=O,>10 µM
C=C(C)[C@@H]1CC[C@]2(C(=O)NCCCCCCCC(=O)N[C@@H](CC(C)C)[C@@H](O)CC(=O)O)CC[C@]3(C)[C@H](CC[C@@H]4[C@@]5(C)CC[C@H](O)C(C)(C)[C@@H]5CC[C@]43C)[C@@H]12,>10 µM
Nc1ccn([C@H]2C[C@@H](CO)[C@H](O)[C@@H]2O)c(=O)n1,>100 µM
COc1cccc(-c2nnc3c4ccccc4c(N4CCc5ccccc5C4)nn23)c1,>100 µM
CN(C)CCNCc1ccc(-c2cccc(-c3ccc(CNCCN(C)C)cc3)n2)cc1,10 µM
N#CC1=C[C@@H](n2ccc(=O)[nH]c2=O)O[C@H]1CO,>100 µM
COc1ccc(C)cc1NC(=O)NCCc1ccc2c(n1)NCCC2,5 µM
N#C[C@@H]1[C@H](O)[C@@H](n2cnc3c(=O)[nH]cnc32)O[C@H]1CO,>100 µM
O=c1[nH]cnc2c1ncn2[C@@H]1O[C@H](CO)C[C@@H]1F,>80 µM
Cc1ccc(S(=O)(=O)NC[C@@H]2O[C@@H]2[C@H](Cc2ccccc2)NC(=O)C(CC(N)=O)NC(=O)c2ccc3ccccc3n2)cc1,>10 µM
O=c1[nH]cc(F)c(=O)[nH]1,9 µM
Nc1ccn([C@H]2C=C(F)[C@@H](CO)O2)c(=O)n1,>100 µM
CC(C)CCC[C@@H](C)[C@H]1CCC2C3CCC4C[C@@H](O[C@H]5O[C@H](COS(=O)(=O)[O-])[C@@H](OS(=O)(=O)[O-])[C@H](OS(=O)(=O)[O-])[C@@H]5O[C@H]5O[C@H](COS(=O)(=O)[O-])[C@@H](OS(=O)(=O)[O-])[C@H](O[C@H]6O[C@H](COS(=O)(=O)[O-])[C@@H](OS(=O)(=O)[O-])[C@H](O[C@H]7O[C@H](COS(=O)(=O)[O-])[C@@H](OS(=O)(=O)[O-])[C@H](OS(=O)(=O)[O-])[C@@H]7OS(=O)(=O)[O-])C6OS(=O)(=O)[O-])[C@@H]5OS(=O)(=O)[O-])CC[C@]4(C)C3CC[C@@]21C,>800 µg/mL
C#Cc1c[nH]c(=O)[nH]c1=O,>100 µM
CN1CCN(CCSc2nccc(-c3ccc(-c4ccnc(SCCN5CCN(C)CC5)n4)s3)n2)CC1,100 µM
Cc1cn(C[C@H]2C[C@H]2[C@H](O)CO)c(=O)[nH]c1=O,>100 µM
CCCOc1ccccc1CNC(=O)c1ccc2cnccc2n1,6 µg/mL
Cc1cn([C@@H]2O[C@@H](CO)C=C2F)c(=O)[nH]c1=O,>100 µM
Nc1ccn([C@H]2C=C[C@@H](CO)O2)c(=O)n1,65 µM
N#C[C@@H]1[C@H](O)[C@@H](n2cnc3c(N)ncnc32)O[C@H]1CO,>100 µM
Nc1ccn([C@H]2O[C@@H](CO)C=C2F)c(=O)n1,>100 µM
COc1cc2c(cc1[N+](=O)[O-])CN(c1nn3c(C4CC4)nnc3c3ccccc13)CC2,63.4 µM
COc1ncc(I)c(OC)n1,>100 µM
N#C[C@@H]1[C@H](O)[C@@H](n2cnc3c(=O)[nH]c(N)nc32)O[C@H]1CO,>100 µM
CN(C)CCSc1cccc(-c2ccnc(SCCN(C)C)n2)c1,100 µM
Nc1nc2c(ncn2[C@H]2O[C@@H](CO)C=C2F)c(=O)[nH]1,>100 µM
O=C(NCCc1ccc2c(n1)NCCC2)Nc1cccc(OC(F)F)c1,50 µM
CCNc1ncnc2c1ncn2[C@@H]1O[C@H](CO)C[C@@H]1F,>80 µM
Nc1ccn([C@@H]2S[C@H](CO)C=C2F)c(=O)n1,>100 µM
N#C[C@@H]1[C@H](O)[C@@H](n2ccc(=O)[nH]c2=O)O[C@H]1CO,>100 µM
Nc1ccn([C@@H]2O[C@@H](CO)C=C2F)c(=O)n1,>100 µM
N#CC1=C[C@@H](n2cnc3c(N)ncnc32)O[C@H]1CO,>100 µM
Nc1ccn(C[C@H]2C[C@H]2CO)c(=O)n1,>100 µM
NC(=O)c1cn([C@H]2CS[C@H](CO)O2)cn1,>100 µM

Repeating the final 10 entries:

SMILES	result
CN(C)CCSc1cccc(-c2ccnc(SCCN(C)C)n2)c1	100 µM
Nc1nc2c(ncn2[C@H]2O[C@@H](CO)C=C2F)c(=O)[nH]1	>100 µM
O=C(NCCc1ccc2c(n1)NCCC2)Nc1cccc(OC(F)F)c1	50 µM
CCNc1ncnc2c1ncn2[C@@H]1O[C@H](CO)C[C@@H]1F	>80 µM
Nc1ccn([C@@H]2S[C@H](CO)C=C2F)c(=O)n1	>100 µM
N#C[C@@H]1[C@H](O)[C@@H](n2ccc(=O)[nH]c2=O)O[C@H]1CO	>100 µM
Nc1ccn([C@@H]2O[C@@H](CO)C=C2F)c(=O)n1	>100 µM
N#CC1=C[C@@H](n2cnc3c(N)ncnc32)O[C@H]1CO	>100 µM
Nc1ccn(C[C@H]2C[C@H]2CO)c(=O)n1	>100 µM
NC(=O)c1cn([C@H]2CS[C@H](CO)O2)cn1	>100 µM